Reference: paper PMC3049263 (Bioorganic & medicinal chemistry, 2010)

System: recombinant HIV-1YU2
Type: cell-based
Conditions: CD4-deficient Cf2Th-CCR5 cells

SMILES: O=C(NCC1CCN(C2CC2)C1)C(=O)Nc1ccc(Cl)c(F)c1 (centres unmarked) [Compound 46]
- Enhancement of viral infectivity (in words): ineffective at enhancing viral infectivity

SMILES: O=C(Nc1ccc(Cl)c(F)c1)C(=O)NC1CCN(C2CCCCC2)C1 (centres unmarked) [Compound 47]
- Enhancement of viral infectivity (in words): ineffective at enhancing viral infectivity
